Anti-infective test results gathered from many reports (values: NIAID ChemDB through PubChem).

Common to all: tests in culture

ECn is the concentration giving n% inhibition of infection, replication or growth. An empty or dashed field is not shown. Inhibition is in % at the dose shown (toxicity tests: loss of growth or viability). a–b is a range or a potency band. Fold resistance: result on the changed form divided by that on wild type. A number after MIC or MFC names an inhibition level or a share of isolates. Rows are shuffled and stem from different studies.

structure,setting,cell line,tested at,method,mutations,endpoint,species,strain or isolate,result
COc1c(C)c2c(c(O)c1C/C=C(\C)CCC(=O)O)C(=O)OC2,,MA-104,,virus yield,,EC90,West Nile virus,NEW YORK,0.3 µg/mL
Nc1ccnc2c1ncn2[C@H]1C=C[C@@H](OCP(=O)(O)O)O1,,,,cytopathic effect,,EC50,Adenovirus,TRIM (TYPE 8),8 µg/mL
O=c1cnn([C@@H]2O[C@H](CO)[C@@H](O)[C@H]2O)c(=O)[nH]1,,VERO,,cytopathic effect / visual reading,,EC50,West Nile virus,Uganda,1.4 µg/mL
COc1cc(Cc2cnc(N)nc2N)cc(OC)c1Br,,,,,,MBC,Mycobacterium ulcerans,Isolate 94-539,8 µg/mL
COc1cc(C[C@H](C)[C@H](C)Cc2ccc(O)c(O)c2)ccc1O,,,,broth dilution,,MIC50,Candida krusei,CCC 117-2000,62.5 µg/mL
OC[C@H]1O[C@@H](n2cnc3c(NC4CCCCCC4)ncnc32)C[C@@H]1O,,Sheep chondrocytes G81092,,cytopathic effect,,EC50,Maedi-visna virus,KV1772,1.5 µM
O=c1cnn([C@@H]2O[C@H](CO)[C@@H](O)[C@H]2O)c(=O)[nH]1,,VERO,,cytopathic effect,,EC50,Dengue virus,Type 1 (Hawaii),0.5 µg/mL
CC[C@H]1OC(=O)[C@H](C)[C@@H](O[C@H]2C[C@@](C)(OC)[C@@H](O)[C@H](C)O2)[C@H](C)[C@@H](O[C@@H]2O[C@H](C)C[C@H](N(C)C)[C@H]2O)[C@](C)(OC)C[C@@H](C)C(=O)[C@H](C)[C@@H](O)[C@]1(C)O,,,,broth dilution,,MIC,Mycobacterium massiliense,V150,1 µg/mL
O=C(Nc1ccccc1)c1ccccc1OP(=O)(OCc1ccccc1)OCc1ccccc1,7 d,,,,,MIC,Mycobacterium kansasii,My 235/80,250 µM
C[C@@H]1CN(c2c(F)c(N)c3c(=O)c(C(=O)O)cn(C4CC4)c3c2F)C[C@H](C)N1,,,,,,MIC,Streptococcus pneumoniae,Clinical isolate 6406,0.5 µg/mL
CO[C@H]1/C=C/O[C@@]2(C)Oc3c(C)c(O)c4c(O)c(c(/C=N/N5CCN(C)CC5)c(O)c4c3C2=O)NC(=O)/C(C)=C\C=C\[C@H](C)[C@H](O)[C@@H](C)[C@@H](O)[C@@H](C)[C@H](OC(C)=O)[C@@H]1C,,,,,,MIC90,Staphylococcus aureus,20 strains (methicillin-resistant),0.0078 µg/mL
Nc1ccnc2c1ncn2[C@@H]1O[C@H](CO)C[C@H]1O,,MDBK,,cytopathic effect,,EC50,Bovine herpesvirus 1,IRB-LA,>50 µM
NC(=O)c1csc([C@@H]2O[C@H](COP(=O)(O)CP(=O)(O)OC[C@H]3O[C@@H](n4cnc5c(N)ncnc54)[C@H](O)[C@@H]3O)[C@@H](O)[C@H]2O)n1,,VERO,,cytopathic effect / visual reading,,EC50,West Nile virus,NEW YORK,100 µg/mL
OC[C@H]1O[C@@H](n2cnc3c(NC4CC4)ncnc32)C[C@@H]1O,,MDBK,,cytopathic effect,,EC50,Bovine herpesvirus 1,IRB-LA,50 µM
Nc1ncc2c(ncn2COC(CO)CO)n1,,HEL,,plaque count,,EC50,Varicella zoster virus,OKA (TK+),0.046 µM
C#CC[C@@H](C(=O)N[C@H](/C=C/C(=O)OCC)C[C@@H]1CCNC1=O)n1cccc(NC(=O)c2cc(C)on2)c1=O,,H1-HELA,,cytopathic effect / XTT,,EC50,Rhinovirus,Serotype 45,0.02 µM
N[C@@H]1CN(c2c(F)cc3c(=O)c(C(=O)O)cn([C@@H]4C[C@@H]4F)c3c2Cl)CC12CC2,,,,,,MIC50,Staphylococcus aureus,25 strains (methicillin-susceptible),0.03 µg/mL
OC[C@H]1O[C@@H](n2cnc3c(NC4CCCCCC4)nc(Cl)nc32)[C@H](O)[C@@H]1O,,Sheep chondrocytes G81092,,cytopathic effect,,EC50,Maedi-visna virus,KV1772,0.15 µM
C[C@H]1c2cccc(O)c2C(O)=C2C(=O)[C@]3(O)C(O)=C(C(N)=O)C(=O)[C@@H](N(C)C)[C@@H]3[C@@H](O)[C@@H]21,,,,broth dilution,,MIC,Mycobacterium bolletii,,>128 µg/mL
CO[C@H]1/C=C/O[C@@]2(C)Oc3c(C)c(O)c4c(O)c(c5c(c4c3C2=O)NC2(CCN(CC(C)C)CC2)N=5)=NC(=O)/C(C)=C\C=C\[C@H](C)[C@H](O)[C@@H](C)[C@@H](O)[C@@H](C)[C@H](OC(C)=O)[C@@H]1C,,,,,,MIC,Staphylococcus aureus,Terajima,0.016 µg/mL
NC(=O)c1ncn([C@@H]2O[C@H](COP(=O)(O)O)[C@@H](O)[C@H]2O)n1,,VERO 76,,antigen,,EC50,Pichinde virus,,15.8 µg/mL
CN(C)[C@@H]1C(=O)C(C(N)=O)=C(O)[C@@]2(O)C(=O)C3=C(O)c4c(O)c(NC(=O)CN5CCOCC5)cc(F)c4C[C@H]3C[C@@H]12,,,,agar diffusion,,MIC,Streptococcus pneumoniae,106-49619,0.5 µg/mL
C[C@H]1NCc2cc(-c3ccc4c(=O)c(C(=O)O)cn(C5CC5)c4c3OC(F)F)ccc21,,,,,,MIC50,Staphylococcus aureus,25 strains (methicillin-susceptible),0.03 µg/mL
C#Cc1c(C(N)=O)ncn1[C@@H]1O[C@H](CO)[C@@H](O)[C@H]1O,,VERO,,plaque count,,EC50,Parainfluenza virus,TYPE 2/GREER,1.31 µg/mL
OC[C@@H]1CC[C@H](n2cnc3c(NC4CCCCCC4)nc(Cl)nc32)O1,,Sheep chondrocytes G81092,,cytopathic effect,,EC50,Maedi-visna virus,KV1772,0.027 µM
Cc1cn([C@@H]2O[C@H](CO)[C@@H](O)[C@@H]2O)c(=O)[nH]c1=O,,HEL,,plaque count,,EC50,Varicella zoster virus,13 isolates,0.32 µM
O=C1c2cc(Cl)ccc2OP(=O)(c2ccccc2)N1c1ccc(Cl)cc1,7 d,,,,,MIC,Mycobacterium kansasii,My 6509/96,16 µM
Nc1ccc(S(=O)(=O)c2ccc(N)cc2)cc1,,,,,,MIC,Mycobacterium ulcerans,Isolate 8756,1 µg/mL
OC[C@H]1O[C@@H](n2cnc3c(NC4CC4)ncnc32)[C@H](O)[C@@H]1O,,Sheep chondrocytes G81092,,cytopathic effect,,EC50,Maedi-visna virus,KV1772,15 µM
Cc1onc(-c2ccccc2)c1C(=O)N[C@@H]1C(=O)N2[C@@H]1SC(C)(C)[C@@H]2C(=O)O,,,,,,MIC90,Staphylococcus aureus,25 strains (ofloxacin-resistant),>128 µg/mL
O=c1[nH]c(=O)n([C@@H]2O[C@H](CO)[C@@H](O)[C@@H]2O)cc1/C=C/Br,,HEL,,plaque count,,EC50,Varicella zoster virus,PMEDAP-resistant,0.000066 µg/mL
CCCCCCCCCCCCCCCCCCCCCCOCC(C)(COCCCCCCCCCCCCCCCCCCCCCC)CO[C@]1(C(=O)O)C[C@H](OS(=O)(=O)O)[C@@H](NC(C)=O)[C@H]([C@H](OS(=O)(=O)O)[C@@H](COS(=O)(=O)O)OS(=O)(=O)O)O1,,HEP-2,,plaque count,,EC50,Respiratory syncytial virus,N869,0.12 µM
CC(C)(CO)C(=O)SCCOP(=O)(NCc1ccccc1)OC[C@H]1O[C@@H](n2cnc3c(=O)[nH]c(N)nc32)[C@](C)(O)[C@@H]1O,,Replicon cells,,replicon,E15G,fold resistance,Hepatitis C virus,GT1a,1.6
O=C1c2cc(Cl)ccc2OP(=O)(c2ccccc2)N1c1ccc(C(F)(F)F)cc1,14 d,,,,,MIC,Mycobacterium kansasii,My 235/80,8 µM
Nc1ncnc2c1ncn2[C@@H]1O[C@H](CO)[C@H]1CO,,HEL,,plaque count,,EC50,Varicella zoster virus,YS/R (TK-),1.7 µM
Nc1nc(=O)n2ccn([C@@H]3O[C@H](CO)[C@@H](O)[C@H]3O)c2n1,,VERO,,cytopathic effect,,EC50,Banzi virus,H336,5 µg/mL
O=C(O)CP(=O)(O)O,,HEL,,plaque count,,EC50,Varicella zoster virus,BVDU-resistant,8.3 µg/mL
CCO/N=C/c1ccc(OCCC2CCN(c3ccc(C)nn3)CC2)cc1,,KB,,neutral red,,EC50,Rhinovirus,6360-CV41 (ICAM-1 receptor group 63),0.002 µM
OC[C@H]1O[C@@H](n2cnc3c(NC4CCCC4)nc(Cl)cc32)[C@H](O)[C@@H]1O,,MDBK,,cytopathic effect,,EC50,Bovine herpesvirus 1,IRB-LA,>50 µM
Nc1ncnc2c1ncn2C[C@H]1COP(=O)(O)CO1,,HEL,,plaque count,,EC50,Varicella zoster virus,YS/R (TK-),0.04 µM
COc1c(O)c(Cl)c(Cl)c(Cl)c1Cl,,,,,,MIC,Saccharomyces cerevisiae,,50 µg/mL
OC(Cn1cncn1)(Cn1cncn1)c1ccc(F)cc1F,,,,broth dilution,,MIC,Candida albicans,YL 319,512 µg/mL
O=C(Nc1ccc(C(F)(F)F)cc1)c1cc(Cl)ccc1OP(=O)(Oc1ccccc1)Oc1ccccc1,14 d,,,,,MIC,Mycobacterium kansasii,My 235/80,4 µM
CC(=O)N1CCN(c2ccc(OC[C@H]3CO[C@](Cn4ccnc4)(c4ccc(Cl)cc4Cl)O3)cc2)CC1,,,,,,MIC,Candida albicans,Isogenic isolate 12 (25X),≤0.008 µg/mL
Nc1nc2c(ncn2COC(CO)CO)c(=O)[nH]1,,HEL,,plaque count,,EC50,Varicella zoster virus,OKA,0.32 µg/mL
O=C(Nc1ccccc1)c1ccccc1OP(=O)(Oc1ccccc1)Oc1ccccc1,7 d,,,,,MIC,Mycobacterium kansasii,My 6509/96,125 µM
NC(=O)c1c[se]c([C@@H]2O[C@H](CO)[C@@H](O)[C@H]2O)n1,,VERO,,cytopathic effect,,EC50,West Nile virus,NEW YORK,6.2 µg/mL
Nc1nc2c(ncn2[C@@H]2O[C@H](CO)[C@H]2CO)c(=O)[nH]1,,HEL,,plaque count,,EC50,Varicella zoster virus,07/1 (TK-),3 µM
N#Cc1c(Br)n([C@@H]2O[C@H](CO)[C@@H](O)[C@H]2O)c2ncnc(N)c12,,VERO,,cytopathic effect,,EC50,West Nile virus,NEW YORK,>10.6 µg/mL
Nc1ccn(C[C@@H](CO)OCP(=O)(O)O)c(=O)n1,,HEL,,plaque count,,EC50,Varicella zoster virus,BVaraU-resistant,0.032 µg/mL
NC(=O)c1ncn([C@@H]2O[C@H](CO)[C@@H](O)[C@H]2O)n1,,VERO 76,,plaque count,,EC50,Pichinde virus,,1–3.2 µg/mL
O=C1c2cc(Cl)ccc2OP(=O)(c2ccccc2)N1c1ccc(Cl)c(Cl)c1,14 d,,,,,MIC,Mycobacterium kansasii,My 6509/96,16 µM
OC[C@@H]1CC[C@H](n2cnc3c(NC4CC4)ncnc32)O1,,MDBK,,cytopathic effect,,EC50,Bovine herpesvirus 1,IRB-LA,50 µM
N[C@@H](C(=O)N[C@@H]1C(=O)N2C(C(=O)O)=C(Cl)CS[C@H]12)c1ccccc1,,,,,,MIC90,Haemophilus influenzae,38 strains (ampicillin-susceptible),32 µg/mL
O=C(Nc1ccccc1)c1c(O)[nH]c(=S)[nH]c1=O,,Akata-Bx1,,PCR,,EC50,Epstein-Barr virus,,22.19 µM
O=C(Nc1ccc(Br)cc1)c1cc(Cl)ccc1OP(=O)(Oc1ccccc1)Oc1ccccc1,7 d,,,,,MIC,Mycobacterium kansasii,My 235/80,4 µM
Nc1ncnc2c1ncn2C[C@@H](CO)OCP(=O)(O)O,,,,cytopathic effect,,EC50,Adenovirus,13306 (TYPE 8),10 µg/mL
O=C1N(Cc2ccc(CO)cc2)[C@H](Cc2ccccc2)[C@H](O)[C@@H](O)[C@@H](Cc2ccccc2)N1Cc1ccc(CO)cc1,,PBMC,0.18 µM,p24,,inhibition,HIV-1,Clinical isolate V,90%
NC(=O)c1ncn([C@@H]2O[C@H](CO)[C@@H](O)[C@H]2O)n1,,CV-1,,cytopathic effect,,EC50,Measles virus,Chicago,25 µg/mL
Nc1nc2c(ncn2CCOCP(=O)(O)O)c(=O)[nH]1,,,,virus yield,,EC90,Parainfluenza virus,C243 (TYPE 3),17 µg/mL

A second listing of 6 rows from above:

| structure | setting | cell line | tested at | method | mutations | endpoint | species | strain or isolate | result |
|---|---|---|---|---|---|---|---|---|---|
| CC[C@H]1OC(=O)[C@H](C)[C@@H](O[C@H]2C[C@@](C)(OC)[C@@H](O)[C@H](C)O2)[C@H](C)[C@@H](O[C@@H]2O[C@H](C)C[C@H](N(C)C)[C@H]2O)[C@](C)(OC)C[C@@H](C)C(=O)[C@H](C)[C@@H](O)[C@]1(C)O |  |  |  | broth dilution |  | MIC | Mycobacterium massiliense | V150 | 1 µg/mL |
| Nc1nc(=O)n2ccn([C@@H]3O[C@H](CO)[C@@H](O)[C@H]3O)c2n1 |  | VERO |  | cytopathic effect |  | EC50 | Banzi virus | H336 | 5 µg/mL |
| O=c1cnn([C@@H]2O[C@H](CO)[C@@H](O)[C@H]2O)c(=O)[nH]1 |  | VERO |  | cytopathic effect / visual reading |  | EC50 | West Nile virus | Uganda | 1.4 µg/mL |
| COc1cc(C[C@H](C)[C@H](C)Cc2ccc(O)c(O)c2)ccc1O |  |  |  | broth dilution |  | MIC50 | Candida krusei | CCC 117-2000 | 62.5 µg/mL |
| NC(=O)c1ncn([C@@H]2O[C@H](CO)[C@@H](O)[C@H]2O)n1 |  | CV-1 |  | cytopathic effect |  | EC50 | Measles virus | Chicago | 25 µg/mL |
| O=C(Nc1ccc(Br)cc1)c1cc(Cl)ccc1OP(=O)(Oc1ccccc1)Oc1ccccc1 | 7 d |  |  |  |  | MIC | Mycobacterium kansasii | My 235/80 | 4 µM |